Measurements from patent publication US5739276A, “Conotoxin peptides” (dated 1998).

Tests used:
cultured Aplysia neuron = conditions: 350 nM final bath concentration, ten seconds after application
sodium current (INa+) = assay: Whole-cell patch clamp of inward sodium current (MrVIA)
calcium currents = assay: Patch clamp of calcium currents (MrVIA)
potassium currents = assay: Patch clamp of potassium currents (MrVIA)

Ala-Cys-Arg-Lys-Lys-Trp-Glu-Tyr-Cys-Ile-Val-Pro-Ile-Ile-Gly-Phe-Ile-Tyr-Cys-Cys-Pro-Gly-Leu-Ile-Cys-Gly-Pro-Phe-Val-Cys-Val
effect on action potential (cultured Aplysia neuron): blocked | change in current voltage relationships on block (sodium current (INa+); 40 nM): not associated with a change in the current voltage relationships | effect on INa+ (sodium current (INa+); 40 nM): Partial blockage | effect on inward INa+ (sodium current (INa+); 250 nM, 30 seconds after application, -50 to 20 mV): completely blocked | effect on calcium currents (calcium currents): not affected | effect on potassium currents (potassium currents): not affected
